Reference: patent US5665873
For at least one entry, the source does not settle the construct or the ends of the probe. Tags and fusion partners may be left off the protein sequences shown.

Biological target: T1, Glucocorticoid receptor C-terminal fragment containing DNA-binding domain (GR) (UniProt P06536)
T1 sequence (looked up, limits assumed): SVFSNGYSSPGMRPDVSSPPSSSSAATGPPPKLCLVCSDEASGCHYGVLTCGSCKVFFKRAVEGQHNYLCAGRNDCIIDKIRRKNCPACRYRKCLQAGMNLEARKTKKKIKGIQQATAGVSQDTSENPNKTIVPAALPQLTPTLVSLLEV
Experiment: EMSA
Conditions: 0-25 ng protein, 1 ng probe, 25 C 30 min; text says 57 nt oligonucleotide; purified recombinant protein; protein details: described as C-terminal GR (Alroy et al. 1992); label: 32P

Question: Does “GTTCGCACTTTGTCCTAATAATATATATATTAGGACAAAGTGCGAACG (double strand) [HSV-1 oriL GRE probe (L)]” bind?
Answer: Result: binds
